Anti-infective test results gathered from many reports (values: NIAID ChemDB through PubChem).

Common to all: growth or infection tests; organism: Human cytomegalovirus

ECn is the concentration giving n% inhibition of infection, replication or growth.

smiles,measure,read by,strain,cells,value
C[C@@H]1O[C@@H](n2c(Cl)nc3cc(Cl)c(Cl)cc32)[C@H](O)[C@@H]1O,EC50,plaque count,C4 (BDCRB- maribavir-resistant),HFF,0.95 µM
Nc1nc2c(ncn2COC(CO)CO)c(=O)[nH]1,EC50,virus yield,TOWNE,HFF,<1.6 µM
O=C(NCc1ccc(Cl)cc1)c1c[nH]c2ccc(CCCO)cc2c1=O,EC50,plaque count,P53 GDG-resistant,-,0.4 µM
CC(C)Nc1nc2cc(Cl)c(Cl)cc2n1[C@H]1O[C@@H](CO)[C@H](O)[C@@H]1O,EC50,hybridisation,1038RB (ASP344GLU AND ALA355VAL),MRC-5,0.04 µM
OC[C@H]1O[C@@H](n2c(Br)nc3cc(Cl)c(Cl)cc32)[C@H](O)[C@@H]1O,EC50,virus yield,TOWNE,HFF,<0.45 µM
CCCCCCCCCCCCCCCCCCOCCOP(=O)(O)CO[C@H](CO)Cn1ccc(N)nc1=O,EC50,plaque count,C9209/1-4-4 drug-resistant mutant,MRC-5,0.004 µM
Nc1nc2c(ncn2COC(CO)CO)c(=O)[nH]1,EC75,plaque count,PC92 (ganciclovir- foscarnet-susceptible),MRC-5,3.49 µM
Nc1nc2c(ncn2COC(CO)CO)c(=O)[nH]1,EC50,plaque count,17517 (DHPG-S),-,6.8 µM
CCCCCCCC/C=C\CCCCCCCOCCCOP(=O)(O)CO[C@H](CO)Cn1ccc(N)nc1=O,EC50,plaque count,Coffman,HFF,0.005 µM
OC[C@H]1O[C@@H](n2c(Br)nc3cc(Cl)c(Cl)cc32)[C@H](O)[C@@H]1O,EC50,virus yield,R56,-,<3 µM
Nc1nc2c(ncn2COC(CO)CO)c(=O)[nH]1,EC50,plaque count,C8301,MRC-5,1.1 µM
CCCCCCCCCCCCCCCCCOC[C@H](COP1(=O)CO[C@@H](Cn2ccc(N)nc2=O)CO1)OCc1ccccc1,EC50,plaque count,AD169,HFF,0.01 µM
Nc1nc2c(ncn2COC(CO)CO)c(=O)[nH]1,EC90,virus yield,2916 (bdcrb maribavir-resistant),HFF,1.5 µM
O=C(NCc1ccc(Cl)cc1)c1c[nH]c2c(F)cccc2c1=O,EC50,plaque count,759rD100,-,2.6 µM
Nc1ccn(C[C@@H](CO)OCP(=O)(O)O)c(=O)n1,EC50,plaque count,AD169,HEL,0.28 µM
Nc1ccn(C[C@H]2COP(=O)(O)CO2)c(=O)n1,EC50,plaque count,PC92 (ganciclovir- foscarnet-susceptible),MRC-5,0.45 µM
OC[C@H]1O[C@@H](n2c(Br)nc3cc(Cl)c(Cl)cc32)[C@H](O)[C@@H]1O,EC50,plaque count,C9208/5-4-2,HFF,0.8 µM
Nc1nc2c(ncn2COC(CO)CO)c(=O)[nH]1,EC50,plaque count,VR6189 (ganciclovir-susceptible),-,1.8 µM
NC(=O)c1c(Cl)c(-c2cccnc2)n2c1CCCC2,EC50,plaque count,U9070 (ganciclovir-resistant),HEL,0.0018 µM
O=C(O)P(=O)(O)O,EC75,plaque count,PC92 (ganciclovir- foscarnet-susceptible),MRC-5,154 µM
CN(C)c1cccc2c(S(=O)(=O)Nc3ccc(NC(=O)C(C)(C)CO)cc3)cccc12,EC50,plaque count,D10 (BDCRB-resistant),HFF,2.4 µM
O[C@@H]1[C@H](O)[C@H](O)CO[C@H]1n1c(Br)nc2cc(Cl)c(Cl)cc21,EC50,plaque count,AD169,HFF,2.2 µM
CCCCCCCCCCCCCCCCOP(=O)(O)CO[C@H](CO)Cn1ccc(N)nc1=O,EC50,plaque count,VR4955 (foscarnet-resistant),HFF,0.01 µM
OC[C@@H]1O[C@@H](n2c(Cl)nc3cc(Cl)c(Cl)cc32)[C@H](O)[C@@H]1O,EC50,plaque count,TOWNE,HFF,24 µM
COc1cccc(N2CCN(C3=Nc4c(F)cccc4[C@H](CC(=O)O)N3c3cc(C(F)(F)F)ccc3OC)CC2)c1,EC50,plaque count,Clinical isolate 16,-,0.0031 µM
CCCCCCCC/C=C\CCCCCCCOCCCOP1(=O)CO[C@@H](Cn2ccc(N)nc2=O)CO1,EC50,plaque count,AD169,HFF,0.003 µM
Nc1ccn(C[C@@H](CO)OCP(=O)(O)O)c(=O)n1,EC75,plaque count,AD169 (ganciclovir foscarnet-susceptible),MRC-5,0.5 µM
CCCCCCCCCCCCCCCCCCOCCOP1(=O)CO[C@@H](Cn2ccc(N)nc2=O)CO1,EC50,plaque count,DAVIS,MRC-5,0.001 µM
O=C(NCc1ccc(Cl)cc1)c1c[nH]c2ccc(CCCO)cc2c1=O,EC90,plaque count,Clinical isolates,-,5.8 µM
Nc1nc2c(ncn2COC(CO)CO)c(=O)[nH]1,EC50,plaque count,VR4760R (drug-resistant),HFF,830 µM
CCCCCCCCCCCCCCCCOCCCOP(=O)(O)CO[C@H](CO)Cn1ccc(N)nc1=O,EC50,plaque count,AD169,MRC-5,0.0009 µM

The last 4 rows once more:

| smiles | measure | read by | strain | cells | value |
|---|---|---|---|---|---|
| CCCCCCCCCCCCCCCCCCOCCOP1(=O)CO[C@@H](Cn2ccc(N)nc2=O)CO1 | EC50 | plaque count | DAVIS | MRC-5 | 0.001 µM |
| O=C(NCc1ccc(Cl)cc1)c1c[nH]c2ccc(CCCO)cc2c1=O | EC90 | plaque count | Clinical isolates | - | 5.8 µM |
| Nc1nc2c(ncn2COC(CO)CO)c(=O)[nH]1 | EC50 | plaque count | VR4760R (drug-resistant) | HFF | 830 µM |
| CCCCCCCCCCCCCCCCOCCCOP(=O)(O)CO[C@H](CO)Cn1ccc(N)nc1=O | EC50 | plaque count | AD169 | MRC-5 | 0.0009 µM |

Rows are shuffled and stem from different studies. Blank or dashed fields: not listed here.